# Measured values as given in PubChem BioAssay AID504423 (Broad Institute, 2011).
# The list shows a part of the results, in another mix than the full data. Some salts or complexes appear as unconnected parts, following the source record. Active and inactive are the calls of the source.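 How the source made its calls: active means highest replicate inhibition at or above 60% at 9 µM, even if other replicates fall short; inactive means all replicates below 60% inhibition.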
# System: Kaposi's sarcoma herpesvirus LANA C-terminal domain (residues 932-1162) DNA binding
# Experiment: blockers of LANA C-terminal domain DNA interaction – biochemical, fluorescence polarization, FAM-LBS DNA, MBP-C-LANA, single point, primary screen (AID 504423);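 further: 0% = neutral control wells and 100% = 4 µM acridine orange control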
# Conditions: at 9 µM, hits give high values
row,SMILES,inhibition
1,COc1ccc(NP(C)(=O)Oc2ccccc2OC)cc1 (stereo not given),inactive: -0.884%
2,CN(C)CCOC(=O)C(O)(c1ccccc1)C1CCCCC1 (stereo not given),inactive: 0.802%
3,COc1ccc(OP(C)(=O)Nc2cccc(Br)c2)cc1 (stereo not given),inactive: 0.279%
4,Cc1c(C(c2ccc3c(c2)OCO3)c2c(C)n(C)n(-c3ccccc3)c2=O)c(=O)n(-c2ccccc2)n1C.O=[N+]([O-])c1cc([N+](=O)[O-])c(O)c([N+](=O)[O-])c1,inactive: -0.0427%
5,Cc1cc(-c2cccc3ccccc23)c(C)cn1.O=[N+]([O-])c1cc([N+](=O)[O-])c(O)c([N+](=O)[O-])c1,inactive: 0.304%
6,O=[N+]([O-])c1cc([N+](=O)[O-])c(NCC2CCS(=O)(=O)C2)c([N+](=O)[O-])c1 (stereo not given),inactive: -0.234%
7,O=[N+]([O-])c1ccc(OP2(=O)COCCO2)cc1 (stereo not given),inactive: -0.717%
8,CCOP(C)(=S)SCC(=O)NC(C)(CC)C(=O)O (stereo not given),inactive: -1.69%
9,CP(=O)(Nc1ccc(SC(F)(F)F)cc1)Oc1ccc(F)cc1 (stereo not given),inactive: -1.18%
10,Cc1ccccc1NP(C)(=O)Nc1ccccc1C,inactive: -2.07%
11,CP(=O)(Nc1ccc2c(c1)OCCO2)Oc1ccccc1 (stereo not given),inactive: -0.91%
12,CC(C)c1ccc(OP(C)(=O)Nc2ccc(SC(F)(F)F)cc2)cc1 (stereo not given),inactive: 0.246%
13,CP(=O)(Nc1ccccc1F)Oc1ccccc1 (stereo not given),inactive: -1.24%
14,COc1ccc2c(c1O)-c1c(O)c(OC)cc3c1[C@H](C2)[N+](C)(C)CC3.O=[N+]([O-])c1cc([N+](=O)[O-])c([O-])c([N+](=O)[O-])c1[O-],inactive: 5.41%
15,O=C(OCCN1CCN(CCOCc2ccccc2)CC1)C(O)(c1ccccc1)c1ccccc1,inactive: 0.268%
16,O=C(OC1CN2CCC1CC2)c1ccc([N+](=O)[O-])cc1 (stereo not given),inactive: -1.25%
17,COc1ccc(OP(C)(=O)Nc2ccc(SC(F)(F)F)cc2)cc1 (stereo not given),inactive: -0.472%
18,CCOC(=O)c1ccc(NP(C)(=O)Oc2ccc(F)cc2)cc1 (stereo not given),inactive: -0.393%
19,O=[N+]([O-])c1cc([N+](=O)[O-])c(OC2CCCCC2O)c([N+](=O)[O-])c1 (stereo not given),inactive: 1.09%
20,CCCCCOc1ccc(NP(C)(=O)Oc2ccc(Cl)cc2Cl)cc1 (stereo not given),inactive: -0.819%
21,CP(=O)(Nc1ccccc1)Oc1ccc(F)cc1 (stereo not given),inactive: 0.582%
22,CCN(CC)CCCOC(=O)C(O)(c1ccccc1)C1CCCCC1 (stereo not given),inactive: -1.5%
23,Cc1c([N+](=O)[O-])cc([N+](=O)[O-])c(Br)c1[N+](=O)[O-],inactive: 0.322%

row,SMILES,inhibition
1,COc1ccc(OP(C)(=O)Nc2ccccc2Br)cc1 (stereo not given),inactive: 1.86%
2,COc1ccccc1OP(C)(=O)Nc1ccc(C)c(C)c1 (stereo not given),inactive: 0.664%
3,Cc1cc(C)cc(OP(C)(=O)Nc2cccc(C(F)(F)F)c2)c1 (stereo not given),inactive: 0.984%
4,O=C1C(O)=C([N+](=O)[O-])C(=O)C(O)=C1[N+](=O)[O-],inactive: 40.3%
5,CP(=O)(Nc1ccc(Cl)cc1Cl)Oc1ccccc1 (stereo not given),inactive: 1.12%
6,CCCCCCCCCCCCCCCC1C[N+](C)(C)CCOP(C)(=O)O1 (stereo not given),inactive: -1.76%
7,CP(=O)(OCCOc1ccccc1)OCCOc1ccccc1,inactive: 0.488%
8,CN(C)CCOC(=O)C(O)(c1ccccc1)C1CCCC1 (stereo not given),inactive: 1.62%
9,COc1ccc(OP(C)(=O)Nc2ccccn2)cc1 (stereo not given),inactive: 0.996%
10,COc1ccccc1OP(C)(=O)Nc1ccc(Br)cc1 (stereo not given),inactive: -0.651%
11,CCc1ccc(OP(C)(=O)O)cc1,inactive: 0.429%
12,COc1ccccc1OP(C)(=O)Nc1ccc(C)cc1C (stereo not given),inactive: -0.486%
13,CP(=O)(Nc1ccccn1)Oc1ccccc1 (stereo not given),inactive: -2.05%
14,Cc1c(NP(C)(=O)Oc2ccc(C(C)C)cc2)c(=O)n(-c2ccccc2)n1C (stereo not given),inactive: 2.21%
15,O=[N+]([O-])c1cc([N+](=O)[O-])c(Nc2ccccn2)c([N+](=O)[O-])c1,inactive: -2.97%
16,CCc1ccc(OP(C)(=O)Nc2cccnc2)cc1 (stereo not given),inactive: -2.99%
17,CP(=O)(Oc1ccccc1)N1CCOC1=O (stereo not given),inactive: 1.47%
18,O=C(OCCCN1CCCC1)C(O)(c1ccccc1)C1CCCCC1 (stereo not given),inactive: -0.87%
19,COc1ccccc1OP(C)(=O)Nc1c(C)n(C)n(-c2ccccc2)c1=O (stereo not given),inactive: 1.29%
20,COc1ccc(OP(C)(=O)Nc2ccc(Br)cc2)cc1 (stereo not given),inactive: 1.35%
21,CCN(CC)CC(O)COC(=O)C(O)(c1ccccc1)C1CCCCC1 (stereo not given),inactive: -1.62%
22,CN(C)C(=O)c1c([N+](=O)[O-])cc([N+](=O)[O-])cc1[N+](=O)[O-],inactive: -1.79%
